Measured values from several laboratories, pooled; numbers as filed in NIAID ChemDB.

Shared fields: whole-cell or culture tests; agent: HIV-1; cells: PBMC; read-out: EC50

ECn: concentration that inhibits the pathogen or its effect by n%. Blank or dashed fields: not listed here. Two numbers with a dash give a range or band. Neighbouring rows are from separate reports.

{"smiles": "Oc1ccc(-c2c3nc(c(-c4ccc(O)cc4)c4ccc([nH]4)c(-c4ccc(O)cc4)c4nc(c(-c5ccc(O)cc5)c5ccc2[nH]5)C=C4)C=C3)cc1", "strain": "LAV", "read by": "RT activity", "result": "0.6 µM"}
{"smiles": "C[n+]1ccc(-c2c3nc(c(-c4ccccc4)c4ccc([nH]4)c(-c4cc[n+](C)cc4)c4nc(c(-c5ccccc5)c5ccc2[nH]5)C=C4)C=C3)cc1", "strain": "LAV", "read by": "RT activity", "result": "0.34–1.87 µM"}
{"smiles": "O=S(=O)(O)c1ccc(-c2c3nc(c(-c4ccc(S(=O)(=O)O)cc4)c4ccc([n-]4)c(-c4ccc(S(=O)(=O)O)cc4)c4nc(c(-c5ccc(S(=O)(=O)O)cc5)c5ccc2[n-]5)C=C4)C=C3)cc1.[Na+]", "strain": "LAV", "read by": "RT activity", "result": "<1 µM"}
{"smiles": "Cc1cn([C@H]2C[C@H](N=[N+]=[N-])[C@@H](CO)O2)c(=O)[nH]c1=O", "strain": "LAI", "result": "0.015 µM"}
{"smiles": "Cc1cn([C@H]2C[C@H](N=[N+]=[N-])[C@@H](CO)O2)c(=O)[nH]c1=O", "strain": "NL4-3", "read by": "p24 / RT activity", "result": "0.00504 µM"}
{"smiles": "CCCCN1C(=O)C(CC2CCCCC2)NC(=O)C12CCN(Cc1ccc3c(c1)OCCO3)CC2", "strain": "BAL R5", "read by": "p24", "result": "0.082 µM"}
{"smiles": "CC[C@@]1(O)C(=O)OCc2c1cc1n(c2=O)Cc2c-1nc1ccccc1c2CO", "strain": "KM018", "read by": "p24 / ELISA / antigen", "result": "0.0009 µg/mL"}
{"smiles": "Cc1cn([C@H]2C[C@H](N=[N+]=[N-])[C@@H](CO)O2)c(=O)[nH]c1=O", "strain": "D34 X4", "read by": "p24", "result": "0.008 µM"}
{"smiles": "Nc1nc2c(ncn2[C@H]2C=C[C@@H](CO)C2)c(=O)[nH]1", "strain": "IIIB", "read by": "RT activity", "result": "0.05–0.15 µM"}
{"smiles": "CC(C)(C)C(=O)c1sc(C(=O)NCc2ccccc2)c(O)c1O", "strain": "ZA97005 X4 CLADE C", "read by": "p24", "result": "0.8 µM"}
{"smiles": "CC(C)(C)NC(=O)[C@@H]1C[C@@H]2CCCC[C@@H]2CN1C[C@@H](O)[C@H](Cc1ccccc1)NC(=O)[C@H](CC(N)=O)NC(=O)c1ccc2ccccc2n1", "strain": "Subtype B isolate", "read by": "RT activity", "result": "0.011 µM"}
{"smiles": "O=C1N(Cc2ccc(CO)cc2)[C@H](Cc2ccccc2)[C@H](O)[C@@H](O)[C@@H](Cc2ccccc2)N1Cc1ccc(CO)cc1", "strain": "RF", "read by": "p24", "result": "<0.018 µM"}
{"smiles": "CN(C)c1nc(N)nc2c1ncn2[C@H]1CO[C@@H](CO)O1", "strain": "LAI", "read by": "RT activity", "result": "0.87 µM"}
{"smiles": "COc1cc(OC)nc(N2C(=O)CSC2c2c(F)cccc2Cl)n1", "strain": "N119", "read by": "p24 / ELISA", "result": "3.6 µg/mL"}
{"smiles": "CCC(C)[C@H](NC(=O)[C@H](C(C)C)[C@@H](O)[C@H](O)[C@H](CC1CCCCC1)NC(=O)c1ccccc1OCCOCCOC)C(=O)NCc1nc2ccccc2[nH]1", "strain": "D34", "read by": "p24", "result": "0.001–0.01 µM"}
{"smiles": "N#CCn1ccc(=O)n(Cc2c(F)cccc2F)c1=O", "strain": "IIIB", "result": "364 µM"}
{"smiles": "COc1nc(N)nc2c1ncn2[C@H]1CO[C@@H](CO)O1", "strain": "LAI", "read by": "RT activity", "result": "3.8 µM"}
{"smiles": "Cc1ccnc2c1NC(=O)c1cccnc1N2C1CC1", "strain": "D148/86", "read by": "p24 / ELISA", "result": "0.422 µM"}
{"smiles": "CC#CCN1C(=O)[C@H]([C@@H](O)C2CCCCC2)NC(=O)C12CCN(Cc1c(C)nn(-c3ccccc3)c1C)CC2", "strain": "NL4-3 X4", "read by": "p24", "result": ">1 µM"}
{"smiles": "CCOCn1c([Se]c2ccccc2)c(CC)c(=O)[nH]c1=O", "strain": "LAV", "read by": "RT activity", "result": "0.017 µM"}
{"smiles": "O=c1[nH]c(=O)n([C@H]2C[C@H](F)[C@@H](CO)O2)cc1C#CI", "result": "6.9 µM"}
{"smiles": "CCOCn1c([Se]c2ccccc2)cc(=O)[nH]c1=O", "strain": "LAV", "read by": "RT activity", "result": "36 µM"}
{"smiles": "Cc1cccc(C)c1Cn1c(=O)ccn(CC#N)c1=O", "strain": "IIIB", "result": "196 µM"}
{"smiles": "Cc1ccnc2c1NC(=O)c1cccnc1N2C1CC1", "strain": "N119", "read by": "p24 / ELISA", "result": "0.15 µg/mL"}
{"smiles": "Cc1ccc(Cn2c(=O)ccn(CC#N)c2=O)cc1", "strain": "IIIB", "result": "94.8 µM"}
{"smiles": "O=c1[nH]c(=O)n([C@H]2C[C@H](F)[C@@H](CO)O2)cc1/C(Cl)=C/I", "result": "4.9 µM"}
{"smiles": "Oc1cccc(-c2c3nc(c(-c4cccc(O)c4)c4ccc([nH]4)c(-c4cccc(O)c4)c4nc(c(-c5cccc(O)c5)c5ccc2[nH]5)C=C4)C=C3)c1", "strain": "LAV", "read by": "RT activity", "result": "5.37 µM"}
{"smiles": "CC(C)Nc1cccnc1N1CCN(C(=O)c2cc3cc(NS(C)(=O)=O)ccc3[nH]2)CC1", "changes": "RT-E89G", "read by": "p24", "result": "0.04 µM"}
{"smiles": "[N-]=[N+]=N[C@@H]1[C@H](O)[C@@H](CO)O[C@H]1n1ccc(N)nc1=O", "strain": "IIIB", "read by": "p24", "result": ">2 µM"}
{"smiles": "N#CCn1ccc(=O)n(Cc2cccc(C#N)c2)c1=O", "strain": "IIIB", "result": "7.44 µM"}
{"smiles": "CC(C)(C)NC(=O)[C@@H]1CN(Cc2cccnc2)CCN1C[C@@H](O)C[C@@H](Cc1ccccc1)C(=O)N[C@H]1c2ccccc2C[C@H]1O", "strain": "BR60 (PR L10I K20R M36I/V P63L/S L90M)", "changes": "PR-L10I K20R M36I/V P63L/S L90M", "read by": "p24", "result": "0.008 µM"}
{"smiles": "CCNc1nc(N)nc2c1ncn2[C@H]1CO[C@@H](CO)O1", "strain": "LAI", "read by": "RT activity", "result": "0.41 µM"}
{"smiles": "Cc1cc(C)cc(Cn2c(=S)ccn(Cc3ccccc3)c2=O)c1", "strain": "IIIB", "result": "0.051 µM"}
{"smiles": "C[C@H](Cn1cnc2c(N)ncnc21)OCP(=O)(O)O", "changes": "RT-K65R", "read by": "p24", "result": "6.37 µM"}
{"smiles": "S=C(NCCC1=CCCCC1)Nc1ccc(Cl)cn1", "strain": "IIIB", "read by": "RT activity", "result": "0.003 µM"}
{"smiles": "Cc1cccc(Cn2c(=O)ccn(CC#N)c2=O)c1", "strain": "IIIB", "result": "6.7 µM"}
{"smiles": "c1cc(CN2CCCNCCNCCCNCC2)ccc1CN1CCCNCCNCCCNCC1", "strain": "BAL R5", "read by": "antigen", "result": ">25 µg/mL"}
{"smiles": "O=c1[nH]c(=O)n([C@H]2C[C@H](F)[C@@H](CO)O2)cc1/C(I)=C/I", "result": "3.1 µM"}
{"smiles": "CC(C)(C)NC(=O)[C@@H]1C[C@@H]2CCCC[C@@H]2CN1C[C@@H](O)[C@H](Cc1ccccc1)NC(=O)[C@H](CC(N)=O)NC(=O)c1ccc2ccccc2n1", "strain": "BaL", "read by": "p24", "result": "0.0172 µM"}
{"smiles": "Nc1nc(NC2CC2)c2ncn([C@H]3C=C[C@@H](CO)C3)c2n1", "strain": "IIIB", "read by": "p24", "result": "0.63 µM"}
{"smiles": "Nc1ccn([C@@H]2C[Se][C@H](CO)O2)c(=O)n1", "strain": "BRU", "read by": "RT activity", "result": "0.11 µM"}
{"smiles": "Cc1cn([C@H]2C[C@H](N=[N+]=[N-])[C@@H](CO)O2)c(=O)[nH]c1=O", "strain": "Group O isolate", "read by": "RT activity", "result": "<0.03 µM"}
{"smiles": "Cc1cn([C@H]2C[C@H](N=[N+]=[N-])[C@@H](CO)O2)c(=O)[nH]c1=O", "strain": "NL4-3 X4", "read by": "p24", "result": "0.011 µM"}
{"smiles": "CCC(C)[C@H](NC(=O)[C@H](C(C)C)[C@@H](O)[C@H](O)[C@H](CC1CCCCC1)NC(=O)c1ccccc1OCCOc1ccccc1)C(=O)NCc1nc2ccccc2[nH]1", "strain": "D34", "read by": "p24", "result": "0.1–1 µM"}
{"smiles": "COC(=O)N[C@H](C(=O)N[C@@H](Cc1ccccc1)[C@@H](O)CN(Cc1ccc(-c2ccccn2)cc1)NC(=O)[C@@H](NC(=O)OC)C(C)(C)C)C(C)(C)C", "strain": "BaL", "read by": "p24", "result": "0.00438 µM"}
{"smiles": "S=C(NCCc1ccccc1Cl)Nc1ccc(Br)cn1", "strain": "IIIB", "read by": "RT activity", "result": "<0.001 µM"}
{"smiles": "C=Cc1c(C)c2cc3[nH]c(cc4nc(cc5nc(cc1[nH]2)C(C)=C5CCC(=O)O)C(CCC(=O)O)=C4C)c(C)c3C=C", "strain": "LAV", "read by": "RT activity", "result": "0.48–3.62 µM"}
{"smiles": "N#CCn1ccc(=O)n(Cc2cccc3ccccc23)c1=O", "strain": "IIIB", "result": "5.39 µM"}
{"smiles": "O=c1[nH]cnc2c1ncn2[C@H]1CC[C@@H](CO)O1", "strain": "9451 CLADE C CLADE C", "read by": "p24", "result": "0.227 µM"}
{"smiles": "Nc1nc(NCc2ccccc2)c2ncn([C@H]3CO[C@@H](CO)O3)c2n1", "strain": "LAI", "read by": "RT activity", "result": "44.9 µM"}
{"smiles": "CCC(C)[C@H](NC(=O)[C@H](C(C)C)[C@@H](O)[C@H](O)[C@H](CC1CCCCC1)NC(=O)[C@H](Cc1cnc[nH]1)NC(=O)COc1cccc2ccccc12)C(=O)NCc1ccccn1", "strain": "D34", "read by": "p24", "result": "0.001–0.01 µM"}
{"smiles": "CCO/N=C(\\c1ccc(Br)cc1)C1CCN(C2(C)CCN(C(=O)c3c(C)cc[n+]([O-])c3C)CC2)CC1", "strain": "R5-02 R5 clinical isolate", "read by": "p24", "result": "0.0022 µM"}
{"smiles": "Nc1ccn([C@H]2CC[C@@H](CO)O2)c(=O)n1", "strain": "HXB2", "read by": "p24", "result": "0.01 µM"}
{"smiles": "Cc1ccnc2c1NC(=O)c1cccnc1N2C1CC1", "changes": "RT-E89G", "read by": "p24", "result": "0.44 µM"}
{"smiles": "COc1cc(C[C@H](C)[C@H](C)Cc2ccc(O)c(O)c2)ccc1O", "strain": "WM", "read by": "p24", "result": "2 µg/mL"}
{"smiles": "Cc1cc(C)cc(Cn2c(=O)ccn(Cc3ccccc3)c2=O)c1", "strain": "IIIB", "result": "0.234 µM"}
{"smiles": "Nc1nc(=O)n([C@@H]2CS[C@H](CO)O2)cc1F", "strain": "LAI", "read by": "RT activity", "result": "0.03 µM"}
{"smiles": "Nc1nc(NC2CC2)c2ncn([C@H]3C=C[C@@H](CO)C3)c2n1", "strain": "HXB2", "read by": "p24", "result": "1.41 µM"}
{"smiles": "Nc1nc(NC2CCC2)c2ncn([C@H]3CO[C@@H](CO)O3)c2n1", "strain": "LAI", "read by": "RT activity", "result": "2.2 µM"}
{"smiles": "CC(C)(C)NC(=O)[C@@H]1CN(Cc2cccnc2)CCN1C[C@@H](O)C[C@@H](Cc1ccccc1)C(=O)N[C@H]1c2ccccc2C[C@H]1O", "strain": "BaL", "read by": "p24", "result": "0.0261 µM"}
{"smiles": "Cc1cc(C)cc([C@]23SCCN2C(=O)c2ccccc23)c1", "strain": "D148/86", "read by": "p24 / ELISA", "result": "0.009 µM"}
{"smiles": "N#CC[C@H](C1CCCC1)n1cc(-c2ncnc3[nH]ccc23)cn1", "read by": "p24 / ELISA", "result": "0.1 µM"}
{"smiles": "Nc1ncnc2c([C@H]3CC[C@](/C=C/P(=O)(O)O)(C(F)(F)F)C3)c[nH]c12", "strain": "LAI", "result": "62.8 µM"}
{"smiles": "CC(=O)N1CCC(C(=O)N(CCCN2CCC(Cc3ccc(C(N)=O)cc3)CC2)c2ccc(C)c(Cl)c2)CC1", "strain": "IIIB X4", "read by": "p24", "result": ">10 µM"}
{"smiles": "Cc1ccc(-c2ccc3c(c2)C=C(C(=O)Nc2ccc(C[N+](C)(C)C4CCOCC4)cc2)CCC3)cc1", "strain": "BAL R5", "read by": "p24", "result": "0.028 µM"}

The first 5 rows once more:

smiles | strain | changes | read by | result
Oc1ccc(-c2c3nc(c(-c4ccc(O)cc4)c4ccc([nH]4)c(-c4ccc(O)cc4)c4nc(c(-c5ccc(O)cc5)c5ccc2[nH]5)C=C4)C=C3)cc1 | LAV |  | RT activity | 0.6 µM
C[n+]1ccc(-c2c3nc(c(-c4ccccc4)c4ccc([nH]4)c(-c4cc[n+](C)cc4)c4nc(c(-c5ccccc5)c5ccc2[nH]5)C=C4)C=C3)cc1 | LAV |  | RT activity | 0.34–1.87 µM
O=S(=O)(O)c1ccc(-c2c3nc(c(-c4ccc(S(=O)(=O)O)cc4)c4ccc([n-]4)c(-c4ccc(S(=O)(=O)O)cc4)c4nc(c(-c5ccc(S(=O)(=O)O)cc5)c5ccc2[n-]5)C=C4)C=C3)cc1.[Na+] | LAV |  | RT activity | <1 µM
Cc1cn([C@H]2C[C@H](N=[N+]=[N-])[C@@H](CO)O2)c(=O)[nH]c1=O | LAI |  |  | 0.015 µM
Cc1cn([C@H]2C[C@H](N=[N+]=[N-])[C@@H](CO)O2)c(=O)[nH]c1=O | NL4-3 |  | p24 / RT activity | 0.00504 µM